Tested on: S. suis strain 7997
Assay: PlySs2 biochemical characterization, OD600 turbidity
Conditions: very low concentrations of EDTA, 15 mM Na3PO4 pH 8.0

B1: PlySs2: S. suis prophage lysin from strain 89/1591, amino acid sequence SEQ ID NO:3 (protein, listed as Streptococcus suis)
chain: MTTVNEALNNVRAQVGSGVSVGNGECYALASWYERMISPDATVGLGAGVGWVSGAIGDTISAKNIGSSYNWQANGWTVSTSGPFKAGQIVTLGATPGNPYGHVVIVEAVDGDRLTILEQNYGGKRYPVRNYYSAASYRQQVVHYITPPGTVAQSAPNLAGSRSYRETGTMTVTVDALNVRRAPNTSGEIVAVYKRGESFDYDTVIIDVNGYVWVSYIGGSGKRNYVATGATKDGKRFGNAWGTFK
  effect of EDTA on activity: diminish PlySs2 activity

— patent US20140179594A1, “STREPTOCOCCUS BACTERIOPHAGE LYSINS FOR TREATMENT OF GRAM POSITIVE BACTERIA IN COMPANION ANIMALS AND LIVESTOCK” (priority 2011, published 2014)
